The source of these data is patent publication US20250283871A1, “COMPOSITIONS AND METHODS FOR MODULATING THE INTERACTION BETWEEN SS18-SSX FUSION ONCOPROTEIN AND NUCLEOSOMES” (Dana-Farber Cancer Institute, Inc., priority 2020, published 2025).

This data set has as its system BAF complex subunits and histone proteins. Description: Mass spectrometry proteomics of purified HA-SS18 WT and HA-SS18-SSX1 complexes (Tables 5A-5E). Also on record: species or system human. The following applies: HEK-293T.
The mark [1] stands for this setting: HA-SS18SSX1_NE_peptides (Table 5B), HA-SS18-SSX1 BAF complex purification from soluble nuclear extract.
Where [2] appears, read: HA-SS18WT_NE_peptides: proteins co-purified with HA-SS18 WT from nuclear extract (NE).

B1: SPNS1 (protein, UniProt Q9H2V7 2-528, looked up)
Protein spinster homolog 1: AGSDTAPFLSQADDPDDGPVPGTPGLPGSTGNPKSEEPEVPDQEGLQRITGLSPGRSALIVAVLCYINLLNYMDRFTVAGVLPDIEQFFNIGDSSSGLIQTVFISSYMVLAPVFGYLGDRYNRKYLMCGGIAFWSLVTLGSSFIPGEHFWLLLLTRGLVGVGEASYSTIAPTLIADLFVADQRSRMLSIFYFAIPVGSGLGYIAGSKVKDMAGDWHWALRVTPGLGVVAVLLLFLVVREPPRGAVERHSDLPPLNPTSWWADLRALARNPSFVLSSLGFTAVAFVTGSLALWAPAFLLRSRVVLGETPPCLPGDSCSSSDSLIFGLITCLTGVLGVGLGVEISRRLRHSNPRADPLVCATGLLGSAPFLFLSLACARGSIVATYIFIFIGETLLSMNWAIVADILLYVVIPTRRSTAEAFQIVLSHLLGDAGSPYLIGLISDRLRRNWPPSFLSEFRALQFSLMLCAFVGALGGAAFLGTAIFIEADRRRAQLHVQGLLHEAGSTDDRIVVPQRGRSTRVPVASVLI
Turning to B1, under setting [1], the AVG is given as 2.3667, the “Total (peptides)” value was found to be 1 and the “Unique (peptides)” value was 1. Also, under setting [2], the AVG stood at 2.6569, the “Total (peptides)” value worked out at 2 and the “Unique (peptides)” value came out at 2.
